Pooled drug test results. Numbers come from NIAID ChemDB, via PubChem.

Common to all: growth or infection tests

Blank or dashed fields: not listed here.

smiles	agent	strain or isolate	read by	read-out	dose	conditions	result
CC(C)Oc1ccc(-c2ccc(Nc3ncnc4ccccc34)cc2)cc1	Mycobacterium bovis BCG		luminescence	MIC50			>10 µM
O=C(NCc1ccc(N2CCOCC2)cc1)c1c(Cl)nc2ccccn12	Mycobacterium ulcerans		fluorescence	MIC50			1–10 µg/mL
Cc1cn2c(C(=O)NCc3ccc(N4CCN(c5ccc(OC(F)(F)F)cc5)C(C)(C)C4)c(F)c3)c(C)nc2s1	Mycobacterium avium		fluorescence	inhibition	0.19 µM		85%
CCCCCCCNC(=O)NNC(=O)c1ccncc1	Mycobacterium kansasii	My 235/80	broth dilution	MIC100		21 d	125 µM
Cc1ccc(CCNc2ncnc3ccsc23)cc1	Mycobacterium bovis BCG		luminescence	MIC50			>50 µM
Cc1ccc2oc(=S)n(-c3ccc(Br)cc3)c(=S)c2c1	Mycobacterium kansasii	6509/96		MIC		14 d	4 µM
CCCCCCCCCCCCCCCCCCCCCCNC(=O)NC(CCC(=O)O)(CCC(=O)O)CCC(=O)O	Mycobacterium chelonae	EO-P-1		MIC			36 µg/mL
O=C(NNC(=O)c1ccncc1)Nc1ccc(Cl)c(C(F)(F)F)c1	Mycobacterium kansasii	My 235/80	broth dilution	MIC100		7 d	62.5 µM
CCc1nc2ccc(Cl)cn2c1C(=O)NCc1ccc(C2CCN(c3ccc(C(C)(C)C)cc3)CC2)cc1F.Cl	Mycobacterium avium		fluorescence	inhibition	0.017 µM		85%
CO[C@@]1(NC(=O)Cn2cnnn2)C(=O)N2C(C(=O)O)=C(CSc3nnc(C)s3)CSC21	Mycobacterium fortuitum	1048		MIC			100 µg/mL
FC(F)(F)c1cccc(Oc2ccc(CNc3ncnc4ccsc34)cn2)c1	Mycobacterium bovis BCG		luminescence	MIC50			>20 µM
Cc1ccc2ncc(C(=O)NCc3ccc(N4CCOCC4)cc3)n2c1	Mycobacterium ulcerans		fluorescence	MIC50			>10 µg/mL
CCCCCCCCCCCCCCCCCC(=O)NC(CCC(=O)O)(CCC(=O)O)CCC(=O)O	Mycobacterium chelonae	EO-P-1		MIC			27 µg/mL
CC(C)N=C(N)/N=C(\N)NOCCCOc1cc(Cl)c(Cl)cc1Cl	Mycobacterium avium complex	4304-4		MIC			32 µg/mL
O=C(NNC(=O)c1ccncc1)Nc1c(Cl)cc(Cl)cc1Cl	Mycobacterium kansasii	My 235/80	broth dilution	MIC100		21 d	>125 µM
OC1(c2ccc(F)cc2)CCN(c2ccc(Nc3ncnc4ccccc34)cc2)CC1	Mycobacterium bovis BCG		luminescence	MIC50			>50 µM
CC(C)=NNC(=O)c1c(C)nc2cc(C)ccn12	Mycobacterium ulcerans		fluorescence	MIC50			>10 µg/mL
CCCCCCCCCCCCCCCCCCC(=O)NC(C)(CCC(=O)O)CCC(=O)O	Mycobacterium abscessus	AAy-P-1		MIC			4.5 µg/mL
N#Cc1ccc(Oc2ccc(Nc3ncnc4ccccc34)cc2)nc1	Mycobacterium bovis BCG		luminescence	MIC50			>50 µM
Cc1cn2c(C(=O)NCc3ccc(-c4ccc(OC(C)C)cc4)c(F)c3)c(C)nc2s1	Mycobacterium avium		fluorescence	inhibition	0.37 µM		85%
CC(NC(=O)c1c(Cl)nc2ccccn12)c1ccc(N2CCN(C)CC2)cc1	Mycobacterium ulcerans		fluorescence	MIC50			>10 µg/mL
O=C(NNC(=O)c1ccncc1)Nc1ccc(Cl)c(Cl)c1	Mycobacterium kansasii	My 6509/96	broth dilution	MIC100		21 d	125 µM
Nc1ccc(S(=O)(=O)c2ccc(N)cc2)cc1	Mycobacterium avium complex	DW30		MIC			32 µg/mL
Clc1ccc(Oc2cccc(CNc3ncnc4ccccc34)c2)cc1	Mycobacterium bovis BCG		luminescence	MIC50			>50 µM
CCCCCCCC(CCCCCCC)OC(=O)NC(CCC(=O)O)(CCC(=O)O)CCC(=O)O	Mycobacterium chelonae	EO-P-1		MIC			105 µg/mL
Fc1cc(Nc2nnc(-c3ccncc3)o2)ccc1Br	Mycobacterium kansasii	My 6509/96	broth dilution	MIC100		7 d	>125 µM
CCc1nc2ccc(Cl)cn2c1C(=O)NCc1ccc(C2CCN(c3ccc(OCC4CC4)cc3)CC2)c(F)c1.Cl	Mycobacterium avium		fluorescence	inhibition	0.016 µM		85%
COc1ccc2oc(=S)n(-c3ccc(C)cc3)c(=S)c2c1	Mycobacterium kansasii	6509/96		MIC		14 d	8 µM
FC(F)(F)Oc1ccc(Oc2ccc(Nc3ncnc4cc(Cl)ccc34)cc2)cc1	Mycobacterium bovis BCG		luminescence	MIC50			>20 µM
CC(C)CCC[C@@H](C)[C@H]1CC[C@H]2[C@@H]3CC[C@H]4C[C@H](NC(=O)NC(CCC(=O)O)(CCC(=O)O)CCC(=O)O)CC[C@]4(C)[C@H]3CC[C@]12C	Mycobacterium chelonae	EO-P-1		MIC			34 µg/mL
Cc1ccc2oc(=S)n(-c3ccc(Cl)c(Cl)c3)c(=S)c2c1	Mycobacterium kansasii	6509/96		MIC		21 d	8 µM
CCCCCCc1ccc(NC(=O)NNC(=O)c2ccncc2)cc1	Mycobacterium kansasii	My 6509/96	broth dilution	MIC100		14 d	125 µM
Cc1nc(NCCc2ccc(C(F)(F)F)cc2)c2ccccc2n1	Mycobacterium bovis BCG		luminescence	MIC50			10 µM
CCCCCCCCCCCCC(CCCCCCCCCCCC)NC(=O)NC(CCC(=O)O)(CCC(=O)O)CCC(=O)O	Mycobacterium chelonae	EO-P-1		MIC			72 µg/mL
Fc1ccc2c(Nc3ccc(N4CCN(c5ccc(C(F)(F)F)cn5)CC4)cc3)ncnc2c1	Mycobacterium bovis BCG		luminescence	MIC50			>20 µM
Cc1ccc2oc(=O)n(-c3ccc(C(F)(F)F)cc3)c(=S)c2c1	Mycobacterium kansasii	My 235/80		MIC		21 d	32 µM
C[C@@H](O)[C@H]1C(=O)N2C(C(=O)O)=C(SCCN=CN)C[C@H]12	Mycobacterium fortuitum	1004-8		MIC			6.25 µg/mL
Cc1cn2c(C(=O)NCc3ccc(Oc4cccc(C(F)(F)F)c4)cc3)c(C)nc2s1	Mycobacterium avium		fluorescence	inhibition	0.61 µM		85%
FS(F)(F)(F)(F)c1ccc(CCNc2ncnc3ccoc23)cc1	Mycobacterium bovis BCG		luminescence	MIC50			>20 µM
CO[C@@]1(NC(=O)Cc2ccccc2)C(=O)N2C(C(=O)[O-])=C(CSc3nnc(C)s3)CSC21	Mycobacterium fortuitum	1260		MIC			25 µg/mL
Clc1ccc(Oc2ccc(Nc3ncnc4ccccc34)cc2)cc1Cl	Mycobacterium bovis BCG		luminescence	MIC50			>20 µM
Cc1ccc2oc(=O)n(-c3ccccc3)c(=S)c2c1	Mycobacterium kansasii	6509/96		MIC		14 d	2 µM
Clc1ccc(-c2nc3ccc(Nc4ncnc5ccccc45)cc3o2)cc1	Mycobacterium bovis BCG		luminescence	MIC50			>50 µM
CCc1nc2cc(F)ccn2c1C(=O)NCc1ccc(N2CCN(c3ccc(OCC(F)(F)F)nc3)[C@@H](CC)C2)c(F)c1.Cl	Mycobacterium avium		fluorescence	inhibition	0.017 µM		85%
O=c1oc2ccc(F)cc2c(=S)n1-c1ccc(C(F)(F)F)cc1	Mycobacterium kansasii	My 235/80		MIC		14 d	8 µM
CO[C@H]1/C=C/O[C@@]2(C)Oc3c(C)c(O)c4c(O)c(c5c(c4c3C2=O)NC2(CCN(CC(C)C)CC2)N=5)=NC(=O)/C(C)=C\C=C\[C@H](C)[C@H](O)[C@@H](C)[C@@H](O)[C@@H](C)[C@H](OC(C)=O)[C@@H]1C	Mycobacterium avium intracellulare	23-Feb		MIC			0.5 µg/mL
COc1ccc(CCNc2ncnc3ccccc23)cc1	Mycobacterium bovis BCG		luminescence	MIC50			>10 µM
Cc1nc2ccc(Cl)cn2c1C(=O)NCc1ccc(N2CCN(c3ccc(OC(F)(F)F)cc3)[C@@H](C)C2)c(Cl)c1.Cl	Mycobacterium avium		fluorescence	inhibition	0.0057 µM		85%
FC(F)(F)c1cccc(Oc2ccc(CNc3ncnc4ccccc34)cn2)c1	Mycobacterium bovis BCG		luminescence	MIC50			>20 µM
CO[C@@]1(NC(=O)CCCC(N)C(=O)O)C(=O)N2C(C(=O)O)=C(COC(N)=O)CSC21	Mycobacterium fortuitum	4-May		MIC			>100 µg/mL
CCCCCCCCCN(CCCCCCCCC)C(=O)NC(CCC(=O)O)(CCC(=O)O)CCC(=O)O	Mycobacterium abscessus	AAy-P-1		MIC			72 µg/mL
c1ccc2c(Nc3ccc(N4CCCCC4)cc3)ncnc2c1	Mycobacterium bovis BCG		luminescence	MIC50			>50 µM
Cc1ccn2c(C(=O)NCc3ccc4oc(-c5ccc(OC(F)(F)F)cc5)nc4c3)c(C)nc2c1.Cl	Mycobacterium avium		fluorescence	inhibition	0.86 µM		85%
Fc1ccc2oc(=S)n(-c3ccc(C(F)(F)F)cc3)c(=S)c2c1	Mycobacterium kansasii	My 235/80		MIC		21 d	8 µM
Fc1ccc2c(Nc3ccc(-c4cccc(C(F)(F)F)c4)cc3)ncnc2c1	Mycobacterium bovis BCG		luminescence	MIC50			>50 µM
Cc1ccc2oc(=O)n(-c3ccc(Br)cc3)c(=S)c2c1	Mycobacterium kansasii	My 235/80		MIC		21 d	4 µM
FC(F)(F)c1cccc(Oc2ccc(Nc3ncnc4ccoc34)cc2)c1	Mycobacterium bovis BCG		luminescence	MIC50			>20 µM
COc1ccc(CNC(=O)c2c(Cl)nc3ccccn23)cc1	Mycobacterium ulcerans		fluorescence	MIC50			0.01–0.1 µg/mL
Cc1nc(Nc2ccc(Oc3cccc(C(F)(F)F)c3)cc2)c2ccc(F)cc2n1	Mycobacterium bovis BCG		luminescence	MIC50			>20 µM
Cc1ccc2oc(=S)n(-c3ccccc3)c(=S)c2c1	Mycobacterium kansasii	6509/96		MIC		14 d	2 µM
FC(F)(F)c1cccc(Oc2ccc(Nc3ncnc4ccccc34)cc2)n1	Mycobacterium bovis BCG		luminescence	MIC50			>20 µM
CO[C@@]1(NC(=O)Cc2cccs2)C(=O)N2C(C(=O)O)=C(COC(N)=O)CS[C@@H]21	Mycobacterium fortuitum	1263		MIC			25 µg/mL
FC(F)(F)Oc1cccc(CNc2ncnc3ccccc23)c1	Mycobacterium bovis BCG		luminescence	MIC50			>20 µM
CO[C@H]1/C=C/O[C@@]2(C)Oc3c(C)c(O)c4c(=O)c(c5oc6cc(N7CCN(CC(C)C)CC7)cc(=O)c6nc5c4c3=C2O)NC(=O)/C(C)=C\C=C\[C@H](C)[C@H](O)[C@@H](C)[C@@H](O)[C@@H](C)[C@H](OC(C)=O)[C@@H]1C	Mycobacterium ulcerans	ATCC 35840		MIC			0.025 µg/mL

The first 5 rows once more:

CC(C)Oc1ccc(-c2ccc(Nc3ncnc4ccccc34)cc2)cc1 ; agent: Mycobacterium bovis BCG ; read by: luminescence ; read-out: MIC50 ; result: >10 µM
O=C(NCc1ccc(N2CCOCC2)cc1)c1c(Cl)nc2ccccn12 ; agent: Mycobacterium ulcerans ; read by: fluorescence ; read-out: MIC50 ; result: 1–10 µg/mL
Cc1cn2c(C(=O)NCc3ccc(N4CCN(c5ccc(OC(F)(F)F)cc5)C(C)(C)C4)c(F)c3)c(C)nc2s1 ; agent: Mycobacterium avium ; read by: fluorescence ; read-out: inhibition ; dose: 0.19 µM ; result: 85%
CCCCCCCNC(=O)NNC(=O)c1ccncc1 ; agent: Mycobacterium kansasii ; strain or isolate: My 235/80 ; read by: broth dilution ; read-out: MIC100 ; conditions: 21 d ; result: 125 µM
Cc1ccc(CCNc2ncnc3ccsc23)cc1 ; agent: Mycobacterium bovis BCG ; read by: luminescence ; read-out: MIC50 ; result: >50 µM

MIC50, MIC90 and the like: level of inhibition, or share of isolates inhibited. Inhibition is in % at the dose shown (toxicity tests: loss of growth or viability). Rows are shuffled and stem from different studies. a–b is a range or a potency band.